Experiments:
[1] = target: T1, SARS-CoV-1/2 S2 stem helix peptide, biotinylated (SARS-CoV-2 (spike 1140-1164; same in …, biotin on the N-terminus); assay: BLI; conditions: both partners purified
T1 chain: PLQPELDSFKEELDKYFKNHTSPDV

[2] = target: SARS-CoV-1/2 S2 stem helix peptide, biotinylated (SARS-CoV-2 (spike 1140-1164; same in …, biotin on the N-terminus); assay: BLI; conditions: both partners purified; remark: listed apart in the source
[3] = target: MERS-CoV S2 stem helix peptide, biotinylated (MERS-CoV (spike 1221-1247, UniProt …, biotin on the N-terminus)); assay: BLI; conditions: both partners purified
[4] = target: MERS-CoV spike, full length, expressed on the cell surface (MERS-CoV, UniProt K9N5Q8); assay: cell-based or functional assay
[5] = target: SARS-CoV-1 spike, full length, expressed on the cell surface (SARS-CoV-1, strain , UniProt P59594); assay: flow cytometry on cells; […] PE anti-human IgG Fc; MFI; conditions: one partner purified
[6] = target: MERS-CoV S2 stem peptide used for crystallization (MERS-CoV (spike 1221-1247, UniProt …)); assay: crystal structure; conditions: both partners purified
[7] = target: SARS-CoV-2 S2 stem peptide used for crystallization (SARS-CoV-2 (spike 1140-1164; same in …); assay: crystal structure; conditions: both partners purified

B1: engineered CC65.1 mAb eCC65.1-2 (antibody, V domains shown)
VH: VQLVQSGAEVKKPGASVKVSCKATGYTFTSQYMHWVRQAPGQGLEWMGIIDPKGGGTSYAQKFRDRVSMTRDTPTSTVYMELRSLRSEDTAVYYCASLWFENPSWTDYWGQGTLVTVSS
VL: VMTQSPGTLSLSPGERATLSCRASQTVNKNYLAWYQQKPGQAPRLLIYHASSRATGIPDRFSGSGSGTDFTLTISRLEPEDFAVYYCQQYGSSPPLFTFGPGTKLEIK
notes: copies: 2 + 2
**Q.** Does B1 bind [1]?
**A.** binds

B2: engineered CC65.1 mAb eCC65.1-5 (antibody, V domains shown)
VH: VQLVQSGAEVKKPGASVKVSCKATGYTFTSQYMHWVRQAPGQGLEWMGIIDPSGGGTSYAQKFRDRVSMTRDTPTSTVYMELRSLRSEDTAVYYCASIWFENPSWRDYWGQGTLVTVSS
VL: VMTQSPGTLSLSPGERATLSCRASQTVNKNYLAWYQQKPGQAPRLLIYGASSRATGIPDRFSGSGSGTDFTLTISRLEPEDFAVYYCQQYGSSPPLFTFGPGTKLEIK
notes: copies: 2 + 2
**Q.** Does B2 bind [1]?
**A.** binds

B3: engineered CC65.1 mAb eCC65.1-10 (antibody, V domains shown)
VH: VQLVQSGAEVKKPGASVKVSCKASGYDFTSQYMHWVRQAPGQGLEWMGIIDPSGGGTSYAQKFRDRVSMTRDTPTSTVYMELRSLRSEDTAVYYCASLWFENPSWSDYWGQGTLVTVSS
VL: VMTQSPGTLSLSPGERATLSCRASQTVNKNYLAWYQQKPGQAPRLLIYHASSRATGIPDRFSGSGSGTDFTLTISRLEPEDFAVYYCQQYGASPPLFTFGPGTKLEIK
notes: copies: 2 + 2
**Q.** Does B3 bind [1]?
**A.** binds

B4: engineered CC65.1 mAb eCC65.1-12 (IgG) (antibody, V domains shown)
VH: EVQLVQSGAEVKKPGASVKVSCKASGYTFTSQYMHWVRQAPGQGLEWMGIIDPSGGGTSYAQKFRDRVSMTRDTPTSTVYMELRSLRSEDTAVYYCASLWFENPSWRDYWGQGTLVTVSS
VL: DVVMTQSPGTLSLSPGERATLSCRASQTVNKNYLAWYQQKPGQAPRLLIYHASSRATGIPDRFSGSGSGTDFTLTISRLEPEDFAVYYCQQYGASPPLFTFGPGTKLEIK
notes: copies: 2 + 2
**Q.** Which results are given for B4?
**A.** fold increase in affinity over parental CC65.1 [2]: 35.4 fold; binding result [3]: binds; IC50 of neutralization of MERS-CoV pseudovirus (HeLa-hDPP4 cells) [4]: 4.18 µg/mL; binding result [5]: binds

B5: engineered CC65.1 mAb eCC65.1-13 (antibody, V domains shown)
VH: EVQLVQSGAEVKKPGASVKVSCKASGYTFTSQYMHWVRQAPGQGLEWMGIIDPSGGGTSYAQKFRDRVSMTRDTPTSTVYMELRSLRSEDTAVYYCASLWFENPSWRDYWGQGTLVTVSS
VL: VMTQSPGTLSLSPGERATLSCRASQTVNKNYLAWYQQKPGQAPRLLIYGASSRATGIPDRFSGSGSGTDFTLTISRLEPEDFAVYYCQQYGASPPLFTFGPGTKLEIK
notes: source: Expi293, transfected, purified (Protein A and Protein G Sepharose); copies: 2 + 2
**Q.** Does B5 bind [3]?
**A.** binds

B6: CC65.1 Fab (Fab, V domains shown)
VH: EVQLVQSGAEVKKPGASVKVSCKASGYTFTSQYMHWVRQAPGQGLEWMGIIDPSGGGTSYAQKFRDRVSMTRDTPTSTVYMELRSLRSEDTAVYYCASLWFENPSWRDYWGQGTLVTVSS
VL: DVVMTQSPGTLSLSPGERATLSCRASQTVNSNYLAWYQQKPGQAPRLLIYRASSRATGIPDRFSGSGSGTDFTLTISRLEPEDFAVYYCQQYGSSPPLFTFGPGTKLEIK
**Q.** Does B6 bind [6]?
**A.** binds

B7: CC65.1 human monoclonal antibody (IgG) (antibody, V domains shown)
VH: EVQLVQSGAEVKKPGASVKVSCKASGYTFTSQYMHWVRQAPGQGLEWMGIIDPSGGGTSYAQKFRDRVSMTRDTPTSTVYMELRSLRSEDTAVYYCASLWFENPSWRDYWGQGTLVTVSS
VL: DVVMTQSPGTLSLSPGERATLSCRASQTVNSNYLAWYQQKPGQAPRLLIYRASSRATGIPDRFSGSGSGTDFTLTISRLEPEDFAVYYCQQYGSSPPLFTFGPGTKLEIK
notes: also called parental CC65.1; copies: 2 + 2
**Q.** How did the Kd [2] turn out when B7 was run?
**A.** ~0.1 nM

**Q.** What about the Kd [3] of the same binder?
**A.** ~1 nM

**Q.** Does B7 bind [5]?
**A.** binds

B8: eCC65.1-12 Fab (Fab, V domains shown)
VH: EVQLVQSGAEVKKPGASVKVSCKASGYTFTSQYMHWVRQAPGQGLEWMGIIDPSGGGTSYAQKFRDRVSMTRDTPTSTVYMELRSLRSEDTAVYYCASLWFENPSWRDYWGQGTLVTVSS
VL: DVVMTQSPGTLSLSPGERATLSCRASQTVNKNYLAWYQQKPGQAPRLLIYHASSRATGIPDRFSGSGSGTDFTLTISRLEPEDFAVYYCQQYGASPPLFTFGPGTKLEIK
**Q.** Does B8 bind [6]?
**A.** binds

B9: engineered CC65.1 mAb eCC65.1-6 (antibody, V domains shown)
VH: EVQLVQSGAEVKKPGASVKVSCKASGYTFTSQYMHWVRQAPGQGLEWMGIIDPSGGGTSYAQKFRDRVSMTRDTPTSTVYMELRSLRSEDTAVYYCASLWFENPSWRDYWGQGTLVTVSS
VL: VMTQSPGTLSLSPGERATLSCRASQTVNKNYLAWYQQKPGQAPRLLIYHASSRATGIPDRFSGSGSGTDFTLTISRLEPEDFAVYYCQQYGSSPPLFTFGPGTKLEIK
notes: copies: 2 + 2
**Q.** Does B9 bind [3]?
**A.** binds

B10: CC65.1 single-chain variable fragment (scFv) (scFv, V domains shown)
VH: EVQLVQSGAEVKKPGASVKVSCKASGYTFTSQYMHWVRQAPGQGLEWMGIIDPSGGGTSYAQKFRDRVSMTRDTPTSTVYMELRSLRSEDTAVYYCASLWFENPSWRDYWGQGTLVTVSS
VL: DVVMTQSPGTLSLSPGERATLSCRASQTVNSNYLAWYQQKPGQAPRLLIYRASSRATGIPDRFSGSGSGTDFTLTISRLEPEDFAVYYCQQYGSSPPLFTFGPGTKLEIK
**Q.** Does B10 bind [7]?
**A.** binds
